Pooled drug test results. Numbers come from NIAID ChemDB, via PubChem.

Shared fields: growth or infection tests; agent: Mycobacterium tuberculosis

ECn: concentration that inhibits the pathogen or its effect by n%. MIC50, MIC90 and the like: level of inhibition, or share of isolates inhibited. Percent inhibition refers to the dose given; in toxicity tests it is the harm to the cells. Blank or dashed fields: not listed here. MIC bound comes from a single tested concentration. Conditions beyond the fields shown may differ between rows.

SMILES | method | strain | measure | mutations | tested at | cell line | result
CN(C)c1ccc(-n2c(=O)oc3cc(Cl)ccc3c2=O)cc1 |  | CNCTC MY331/88 | MIC |  |  |  | 8 µM
Cc1ccc(-c2c(N)[n+]([O-])c3ccccc3[n+]2[O-])cc1 | BACTEC | H37Rv | MIC bound |  |  |  | >12.5 µg/mL
CO[C@H]1/C=C/O[C@@]2(C)Oc3c(C)c(O)c4c(O)c(c(/C=N/N5CCN(C6CCCC6)CC5)c(O)c4c3C2=O)NC(=O)/C(C)=C\C=C\[C@H](C)[C@H](O)[C@@H](C)[C@@H](O)[C@@H](C)[C@H](OC(C)=O)[C@@H]1C |  | 13267 | MIC |  |  |  | 0.02 µg/mL
CC1COc2c(N3CCN(C)CC3)c(F)cc3c(=O)c(C(=O)O)cn1c23 | resazurin | 18b+ | MIC | Drug-resistant |  |  | 0.14 µM
CCCOc1cc2oc3cc(O)c(CCC(C)C)c(O)c3c(=O)c2c(CCC(C)C)c1OC | resazurin | M6 | MIC | MDR |  |  | 3.12 µg/mL
O=C1OC2CC3CC2C1C3C(=O)N1CCCCC1 | BACTEC | H37Rv | MIC bound |  |  |  | >12.5 µg/mL
Cc1cccc(/C=C2/SC(c3cccc(C)c3)N(C(=O)NCCCN3c4ccccc4Sc4ccccc43)C2=O)c1 | agar | H37Rv | inhibition |  | 50 µg/mL |  | 49%
Cc1ccc(S(=O)(=O)C(=S)N(C)N(C)C)cc1 |  | INH-r | MIC |  |  |  | 12.8 µg/mL
O=c1[nH]c2ccc(Cl)cc2c(O)c1N=Nc1ccc(Cl)cc1 | resazurin | H37Rv | MIC |  |  |  | <6.25 µg/mL
CN(C)C/C=C(/c1ccccc1)c1ccc(-c2ccc(Br)cc2)cc1 |  | ALI 909 | MIC |  |  |  | 20 µg/mL
CC(C)Cc1nc(-c2cc3ccccc3[nH]2)c(CC(C)C)nc1-c1cc2ccccc2[nH]1 | resazurin | H37Rv | inhibition |  | 6.25 µg/mL |  | 7%
CO[C@H]1/C=C/O[C@@]2(C)Oc3c(C)c(O)c4c(O)c(c5c(c4c3C2=O)NC2(CCN(CC(C)C)CC2)N=5)=NC(=O)/C(C)=C\C=C\[C@H](C)[C@H](O)[C@@H](C)[C@@H](O)[C@@H](C)[C@H](OC(C)=O)[C@@H]1C |  | H37Rv | MIC |  |  |  | 0.063 µg/mL
Cc1ccc2c(O)c(C)c(=O)[nH]c2n1 | BACTEC | H37Rv | inhibition |  | 6.25 µg/mL |  | 0%
CN(C)C/C=C(\c1ccc(I)cc1)c1ccc(-c2ccc(Br)cc2)cc1 |  | ALI 452 | MIC |  |  |  | ≤4 µg/mL
CCN(CC)CCNc1ccc(CO)c2oc3ccccc3c(=O)c12 | BACTEC | H37Rv | MIC bound |  |  |  | >12.5 µg/mL
O=c1oc2ccc(Br)cc2c(=O)n1-c1ccc(F)cc1 |  | CNCTC MY331/88 | MIC |  |  |  | 16 µM
C=C(C)[C@H]1CN[C@H](C(=O)O)[C@H]1CC(=O)O | BACTEC | H37Rv | MIC bound |  |  |  | >12.8 µg/mL
CO[C@H]1/C=C/O[C@@]2(C)Oc3c(C)c(O)c4c(O)c(c5c(c4c3C2=O)NC2(CCN(CC(C)C)CC2)N=5)=NC(=O)/C(C)=C\C=C\[C@H](C)[C@H](O)[C@@H](C)[C@@H](O)[C@@H](C)[C@H](OC(C)=O)[C@@H]1C |  | 6 (rifampicin-resistant) | MIC |  |  |  | 1 µg/mL
CC1COc2c(N3CCN(C)CC3)c(F)cc3c(=O)c(C(=O)O)cn1c23 | BACTEC | SMI 15 | MIC |  |  |  | 4 µg/mL
C1=C(c2nc(-c3cccnc3)no2)c2ccccc2C12CCN(CC1CCCO1)CC2 | resazurin | 17003 | MIC | Ethambutol-resistant |  |  | 1.56 µM
CN(C)C/C=C(\c1ccc(O)cc1)c1ccc(-c2ccc(Br)cc2)cc1 |  | H37Ra | MIC |  |  |  | 39 µg/mL
O=c1[nH]c2cc(Cl)ccc2c(O)c1N=Nc1cccc(Cl)c1 | resazurin | H37Rv | inhibition |  | 6.25 µg/mL |  | 47%
C1=C(c2nc(-c3ccccc3)no2)c2ccccc2C12CCN(CC1CC1)CC2 | resazurin | H37Rv | MIC |  |  |  | 0.4 µM
CC1(C)S[C@@H]2[C@H](NC(=O)[C@H](N)c3ccccc3)C(=O)N2[C@H]1C(=O)O |  | DGN | MIC |  |  |  | >92 µM
NNC(=O)c1ccncc1 |  | Isolate S1 | MIC |  |  |  | 0.031 µg/mL
ClCCCN1c2ccccc2Sc2ccccc21 | agar | H37Rv | inhibition |  | 25 µg/mL |  | 13%
CNC(=O)OCc1c(COC(=O)NC)c(-c2ccc(C(C)(C)C)cc2)n(C)c1C | resazurin | H37Rv | MIC bound |  |  |  | >6.25 µg/mL
CC(=O)NC[C@H]1CN(c2ccc(N3CCOCC3)c(F)c2)C(=O)O1 | resazurin | H37Rv | MIC |  |  |  | 0.5 µg/mL
COc1cc2oc(-c3ccc(O)cc3O)c(CC=C(C)C)c(=O)c2c(O)c1/C=C/C(C)C |  | ETA-R | MIC |  |  |  | >12.5 µg/mL
NNC(=O)c1ccncc1 |  | CSU23 | MIC |  |  |  | ≤0.125 µg/mL
COc1ccc(-c2noc(C3=CC4(CCN(CC5CCCO5)CC4)c4ccccc43)n2)cc1 | turbidity | TB377 | MIC | Spiroindene-resistant |  |  | 1.5 µM
O=P(O)(O)Oc1c(O)c2ccccc2c2ccccc12 |  | H37Rv | MIC |  |  | VERO | 3.13 µg/mL
CC(=O)c1c(OC(=O)c2ccccc2)cc2oc3cc(O)c(CCC(C)C)c(O)c3c(=O)c2c1CCC(C)C | resazurin | H37Ra | MIC |  |  |  | 3.12 µg/mL
O=C(/C=C/c1ccc(O)cc1)OC[C@H]1O[C@@H](Oc2cc(O)c3c(c2)OC(c2ccc(O)cc2)CC3=O)[C@H](O)[C@@H](O)[C@@H]1O | BACTEC | H37Rv | MIC |  |  |  | ≥12.5 µg/mL
NC1[C@H]2CN(c3nc4c(cc3F)c(=O)c(C(=O)O)cn4-c3ccc(F)cc3F)C[C@@H]12 |  | 37 strains (drug-resistant) | MIC90 |  |  |  | >4 µg/mL
O=c1[nH]c2c([N+](=O)[O-])cccc2c(O)c1N=Nc1ccccc1 | resazurin | H37Rv | MIC |  |  |  | <6.25 µg/mL
N#Cc1ccc(-n2c(=O)oc3ccc(Br)cc3c2=O)cc1 |  | CNCTC MY331/88 | MIC |  |  |  | 2 µM
CO[C@H]1/C=C/O[C@@]2(C)Oc3c(C)c(O)c4c(O)c(c(/C=N/N5CCN(C)CC5)c(O)c4c3C2=O)NC(=O)/C(C)=C\C=C\[C@H](C)[C@H](O)[C@@H](C)[C@@H](O)[C@@H](C)[C@H](OC(C)=O)[C@@H]1C | resazurin | M16 | MIC | MDR |  |  | >2 µg/mL
Cc1ccc2oc(=O)n(-c3cccc([N+](=O)[O-])c3)c(=O)c2c1 |  | CNCTC MY331/88 | MIC |  |  |  | 16 µM
Cc1ccc(N=Nc2c(O)c3cccc(Cl)c3[nH]c2=O)cc1 | resazurin | H37Rv | inhibition |  | 6.25 µg/mL |  | 34%
CC(=O)Oc1cc2oc3cc(OC(C)=O)c(C(C)=O)c(CCC(C)C)c3c(=O)c2c(O)c1CCC(C)C | resazurin | H37Ra | MIC |  |  |  | 3.12 µg/mL
C[C@H]1COc2c(N3CCN(C)CC3)c(F)cc3c(=O)c(C(=O)O)cn1c23 |  | Strain 23 | MIC |  |  |  | 0.25 µg/mL
O=C1C(O)[C@@H](O)C(=O)N1Cc1ccccc1 | resazurin | H37Rv | MIC bound |  |  |  | >6.25 µg/mL
O=c1oc2cc(Cl)ccc2c(=O)n1-c1ccc(C(F)(F)F)cc1 |  | CNCTC MY331/88 | MIC |  |  |  | 2 µM
CN(C)CCCN1c2ccccc2Sc2ccc(Cl)cc21 |  | Isolate A drug-susceptible | MBC |  |  |  | 20 µg/mL
Cn1c(/N=C(\N)N=C(N)N)cc(=O)n(C)c1=O | resazurin | H37Rv | MIC bound |  |  |  | >6.25 µg/mL
O=c1ccc2c(N3CCOCC3)cc(N3CCOCC3)nc2[nH]1 | BACTEC | H37Rv | EC50 |  |  |  | >6.25 µg/mL
NC(=S)N=Nc1c(O)n(O)c2ccccc12 | BACTEC | H37Rv | inhibition |  | 12.8 µg/mL |  | 29%
CC1COc2c(N3CCN(C)CC3)c(F)cc3c(=O)c(C(=O)O)cn1c23 |  | 82 strains | MIC50 |  |  |  | 1 µg/mL
Cc1ccc2c(N3CCOCC3)c(C)c(N3CCCCC3)nc2n1 | BACTEC | H37Rv | EC50 |  |  |  | >6.25 µg/mL
O=C1N(CC2CC2)c2ccccc2C12CCN(Cc1cccnc1)CC2 | resazurin | H37Rv | MIC |  |  |  | 50 µM
COc1cc2oc3cc(O)c(CCC(C)C)c(O)c3c(=O)c2c(CCC(C)C)c1OC | resazurin | M-4 | MIC |  |  |  | 1.56 µg/mL
COc1cc(OCc2ccccc2)c2c(C=O)cc(=O)oc2c1 | BACTEC | H37Rv | MIC bound |  |  |  | >12.5 µg/mL
COc1cc2oc3cc(O)c(CCC(C)C)c(O)c3c(=O)c2c(CCC(C)C)c1O | resazurin | H37Ra | MIC |  |  |  | 3.12 µg/mL
O=C(NCCCN1c2ccccc2Sc2ccccc21)N1C(=O)/C(=C\c2ccccc2O)SC1c1ccccc1O | agar | H37Rv | inhibition |  | 50 µg/mL |  | 65%
Cc1ccc2c(Cl)c(Cc3ccccc3)c(Cl)nc2n1 | BACTEC | H37Rv | EC50 |  |  |  | <6.25 µg/mL
CN(C)CC=C(c1ccccc1)c1ccc(-c2ccc(Br)cc2)cc1 |  | ALI 258 | MIC |  |  |  | ≤5 µg/mL
O=C(O)C1C2OC(C(Cl)C2Cl)C1C(=O)O | BACTEC | H37Rv | inhibition |  | 12.5 µg/mL |  | -6%
O=C1CSC(c2cccc([N+](=O)[O-])c2)N1C(=O)NCCCN1c2ccccc2Sc2ccccc21 | agar | H37Rv | inhibition |  | 50 µg/mL |  | 68%
COc1ccc(CC2=NCCc3cc(OC)c(OC)cc32)cc1OC | BACTEC | H37Rv | inhibition |  | 12.8 µg/mL |  | 3%
C[C@@H]1CN(c2c(F)c(N)c3c(=O)c(C(=O)O)cn(C4CC4)c3c2F)C[C@H](C)N1 |  | CSU28 | MIC |  |  |  | ≤0.125 µg/mL
Cc1ccc2c(=O)n(-c3ccc(N(C)C)cc3)c(=O)oc2c1 |  | CNCTC MY331/88 | MIC |  |  |  | 31 µM
O=C(O)c1cn(C2CC2)c2c(F)c(N3CCSCC3)c(F)cc2c1=O |  | CSU18 | MIC |  |  |  | 0.5 µg/mL
NNC(=O)c1ccncc1 |  | Strain 40 | MIC |  |  |  | 8 µg/mL
CO[C@H]1/C=C/O[C@@]2(C)Oc3c(C)c(O)c4c(O)c(c5c(c4c3C2=O)NC2(CCN(CC(C)C)CC2)N=5)=NC(=O)/C(C)=C\C=C\[C@H](C)[C@H](O)[C@@H](C)[C@@H](O)[C@@H](C)[C@H](OC(C)=O)[C@@H]1C |  | CSU22 | MIC |  |  |  | 4 µg/mL
CN[C@@H]1[C@H](O[C@H]2[C@H](O[C@H]3[C@H](O)[C@@H](O)[C@H](N=C(N)N)[C@@H](O)[C@@H]3N=C(N)N)O[C@@H](C)[C@]2(O)C=O)O[C@@H](CO)[C@H](O)[C@H]1O | turbidity | TB333 | MIC | Spiroindene-resistant |  |  | 1 µM
O=c1oc2ccc(Cl)cc2c(=O)n1-c1ccc(Cl)c(Cl)c1 |  | CNCTC MY331/88 | MIC |  |  |  | 4 µM
CCC(CO)Nc1nc2cc(Cl)ccc2c2ccc(Cl)cc12 | BACTEC | H37Rv | MIC bound |  |  |  | >12.5 µg/mL
CO[C@H]1/C=C/O[C@@]2(C)Oc3c(C)c(O)c4c(=O)c(c5oc6cc(N7CCN(CC(C)C)CC7)cc(=O)c6nc5c4c3=C2O)NC(=O)/C(C)=C\C=C\[C@H](C)[C@H](O)[C@@H](C)[C@@H](O)[C@@H](C)[C@H](OC(C)=O)[C@@H]1C |  | TN1916 | MIC |  |  |  | 16 µg/mL
Cc1ccc(/C=N/C(=O)NCCCN2c3ccccc3Sc3ccccc32)cc1 | agar | H37Rv | inhibition |  | 50 µg/mL |  | 38%
O=C(Nc1ccc(S(=O)(=O)c2ccc([N+](=O)[O-])cc2)cc1)c1ccncc1 | resazurin | H37Rv | MIC bound |  |  |  | >6.25 µg/mL
CN(C)C/C=C(/c1ccc(-c2ccc(Br)cc2)cc1)c1ccc(S(C)(=O)=O)cc1 |  | H37Rv | MIC |  |  |  | 34 µg/mL
O=c1[nH]c2ccccc2c(O)c1N=Nc1ccccc1 | resazurin | H37Rv | inhibition |  | 6.25 µg/mL |  | 97%
COc1cc2oc3cc(O)c(O)c(CCC(C)C)c3c(=O)c2c(O)c1CCC(C)C | resazurin | H37Ra | MIC |  |  |  | 25 µg/mL
Cc1c([C@H](C)[C@@H]2NC[C@@H](C)C[C@H]2O)ccc2c1C[C@H]1[C@H]2CC=C2C[C@@H](O)CC[C@@]21C | BACTEC | H37Rv | MIC |  |  |  | 64 µg/mL
CCOc1cc2oc3cc(O)c(CCC(C)C)c(O)c3c(=O)c2c(CCC(C)C)c1OC | resazurin | M6 | MIC |  |  |  | 1.56 µg/mL
Cc1ccc2c(=O)n(-c3cccc(Cl)c3)c(=O)oc2c1 |  | CNCTC MY331/88 | MIC |  |  |  | 62 µM
CC1=N/C(=C/c2ccc(Cl)cc2)C(=O)N1n1c(-c2ccccc2)nc2ccccc2c1=O | BACTEC | H37Rv | MIC bound |  |  |  | >12.5 µg/mL
Cc1ccc2c(=O)n(-c3ccc(Cl)cc3)c(=O)oc2c1 |  | CNCTC MY331/88 | MIC |  |  |  | 62 µM
O=c1[nH]c2cc(Cl)ccc2c(O)c1N=Nc1ccc([N+](=O)[O-])cc1 | resazurin | H37Rv | MIC |  |  |  | >6.25 µg/mL